From publication PMC10581193 (Microbiology Spectrum, 2023)

By UniProt entry, the sequences of proteins in these tests, tags left out.
UniProt P9WJF1, whole entry Y314H: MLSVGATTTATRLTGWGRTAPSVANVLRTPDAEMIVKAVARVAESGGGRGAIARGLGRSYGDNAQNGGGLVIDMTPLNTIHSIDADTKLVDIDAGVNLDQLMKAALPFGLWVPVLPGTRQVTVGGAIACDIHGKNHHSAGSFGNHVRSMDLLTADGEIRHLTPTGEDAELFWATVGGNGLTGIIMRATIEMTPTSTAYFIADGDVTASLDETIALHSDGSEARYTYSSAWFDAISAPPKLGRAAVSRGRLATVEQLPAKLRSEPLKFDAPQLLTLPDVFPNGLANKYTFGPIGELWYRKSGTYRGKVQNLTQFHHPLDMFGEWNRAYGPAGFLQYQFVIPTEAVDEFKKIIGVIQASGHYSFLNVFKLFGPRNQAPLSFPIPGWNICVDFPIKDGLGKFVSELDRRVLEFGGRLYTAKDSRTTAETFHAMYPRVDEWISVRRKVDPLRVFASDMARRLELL

Biological target: DprE1 (Mycobacterium tuberculosis, UniProt P9WJF1, Y314H)
Test: Whole-genome sequencing of spontaneous resistant mutants
Set-up: species or system M. tuberculosis H37Ra
Conditions: SNP in DprE1 of spontaneous H37Ra resistant mutants, genome position 4236718

SMILES | Base change
Cc1nc(C)c(CN2CCOc3c(C(=O)NCC(F)(F)F)cc(C4CC4)cc32)nc1C [B18, 6-cyclopropyl-N-(2,2,2-trifluoroethyl)-4-((3,5,6-trimethylpyrazin-2-yl)methyl)-3,4-dihydro-2H-benzo[b][1,4]oxazine-8-carboxamide] | 940 TAC→CAC
COc1ncnc(Cn2cc(C(=O)NCCO)c3ncc(C)cc32)c1C [TBA-7371, reference compound] | 940 TAC→CAC
